The text below walks through data of PMC9059125 (Journal of Medicinal Chemistry, 2022).

Data set [1] can be described thus: USP-simulated intestinal fluid (SIF) peptide stability assay. Particulars: USP-SIF pH 6.8, pancreatin 1× USP (10 mg/mL), 37 °C, 50 μM peptide, sampling up to 24 h.
Data set [2] can be described thus: USP-simulated gastric fluid (SGF) peptide stability assay. Particulars: USP-SGF pH 1.2, pepsin 1200–2400 U/mg (3.2 mg/mL), 37 °C, 50 μM peptide, sampling up to 24 h.

Take `CC[C@H](C)[C@@H]1NC(=O)[C@H](CCC(=O)O)NC(=O)[C@@H]2CCCN2C(=O)[C@H](Cc2cnc[nH]2)NC(=O)[C@H](CC(=O)O)NC(=O)[C@H](Cc2ccc(O)cc2)NC(=O)[C@H](CC(N)=O)NC(=O)[C@@H]2CSSC[C@@H]3NC(=O)CNC(=O)CNC(=O)CNC(=O)[C@H](C)NC(=O)[C@H](C)NC(=O)CNC(=O)CNC(=O)[C@H](CSSC[C@H](NC3=O)C(=O)N[C@@H](CO)C(=O)N[C@@H](CC(=O)O)C(=O)N3CCC[C@H]3C(=O)N[C@@H](CCCNC(=N)N)C(=O)N2)NC1=O`: in data set [1], the “t1/2 SIF” value is on record as 1.5 ± 0.1 h. Besides, the “t1/2 SGF” value in data set [2] is reported as over 24 h.
